Laboratory results as given in patent US11192863B2, “Antiviral compounds and methods” (Biotron Limited, priority 2003, dated 2021).
No dose or concentration is given here for some results.

Test system: HIV
Assay type: cell-based
Conditions: Table 19a; rank by overall average p24 antigen at all drug concentrations, 1 = most effective

| SMILES | p24 rank order |
| --- | --- |
| N=C(N)NC(=O)Cc1ccc2ccccc2c1 [2-(2-napthyl)acetoylguanidine] | 10 |
| N=C(N)NC(=O)/C=C/c1cccc(C(F)(F)F)c1 [3-(trifluoromethyl)cinnamoylguanidine] | 2 |
| Cc1cccc(/C=C/C(=O)NC(=N)N)c1 [3-methylcinnamoylguanidine] | 3 |
| N=C(N)NC(=O)c1ccc(-c2ccccc2)cc1 [4-phenylbenzoylguanidine] | 11 |
| NC(N)=NC(=O)c1nc(Cl)c(N2CCCCCC2)nc1N [5-(N,N-hexamethylene)amiloride] | 6 |
| COc1ccc2cc(C(=O)NC(=N)N)ccc2c1 [6-methoxy-2-naphthoylguanidine] | 5 |
| N=C(N)NC(=O)/C=C/c1cccc(Br)c1 [(3-Bromocinnamoyl)guanidine] | 1 |
| NC(N)=NC(=O)/C=C/C=C/c1ccccc1 [(5-Phenyl-penta-2,4-dienoyl)guanidine] | 9 |
| N=C(N)NC(=O)C1CC1c1ccccc1 (stereo not drawn) [(trans-2-Phenylcyclopropanecarbonyl)guanidine] | 8 |
| N=C(NC(=O)CCc1ccccc1)Nc1ccccc1 [N-(3-phenylpropanoyl)-N′-phenylguanidine] | 12 |
| NC(N)=NC(=O)/C=C/c1ccccc1 [cinnamoylguanidine] | 4 |
| N=C(N)NC(=O)/C=C/c1cccc2ccccc12 [trans-3-(1-napthyl)acryloylguanidine] | 7 |
